Here are results for two molecules from publication PMC7803792 (Slas Discovery, 2021).

Data set [1] addresses SARS-CoV-2 nsp10-nsp16 complex (Severe acute respiratory syndrome coronavirus 2, UniProt P0DTD1). The settings on record: read-out: Kd (apparent); FP, 30 nM FAM-RNA, varying nsp10-nsp16; 10 mM Tris pH 7.5, 5 mM DTT, 0.01% Triton X-100, 0.01% BSA.
Data set [2] concerns the target nsp16 (2'-O-methyltransferase);nsp10 (SARS-CoV-2;SARS-CoV-2, UniProt P0DTD1;P0DTD1 6799-7096;4254-4392, |). Nature of the data set: fluorescence polarization.

For 5′ N7-meGpppACCCCC-FAM 3′, the Kd in data set [1] was 130 ± 2 nM.

B1: N7-meGpppACCCCC-FAM (ssRNA)
RNA: ACCCCC
modifications: 5' N7-meGppp cap (5'-5' triphosphate; cap G not in strand)
In data set [2], B1 gave a Kd of 130 ± 2 nM.
